Results reported in patent US20230355708A1, “COMPOSITIONS FOR INHIBITING VIRAL ENTRY AND METHODS USING SAME” (priority 2020, published 2023).

Assay: cytotoxicity

In the case of CC[C@H](C)[C@@H]1NC(=O)[C@H](CC(N)=O)NC(=O)[C@@H](N)CC(=O)NCCCC[C@@H](C(N)=O)NC(=O)[C@H](Cc2c[nH]c3ccccc23)NC(=O)[C@@H]2C[C@H](n3cc(-c4ccc(-c5ccc(C)s5)cc4)nn3)CN2C1=O, the cytotoxicity is reported as “without cytotoxicity”.
